Anti-infective test results gathered from many reports (values: NIAID ChemDB through PubChem).

Shared fields: tests in culture; organism: Hepatitis B virus; read by: PCR; read-out: EC50

An empty or dashed field is not shown.

SMILES | cells | result
CCOC(=O)C1=C(CN2CC(F)(F)[C@H]3[C@@H]2CCN3CC[C@](C)(O)C(=O)O)NC(c2nccs2)=N[C@H]1c1ccc(F)c(F)c1C | HepG2.2.15 | 0.007 µM
CC1O[C@@H]2C[C@H]3[C@H]4C5=C(C(=O)OCC5=C[C@]13C1=C2C(=O)OCC1)[C@@H](O)[C@]12C(=O)OCCC1=C(C=O)[C@@H](C)O[C@H]42 | HepG2.2.15 | 2.58 µM
C#C[C@](C)(NC(=O)C(=O)c1c(C)c(C(=O)Nc2ccc(F)c(C#N)c2)n(C)c1C)C(F)(F)F | HepG2.2.15 | 0.001–0.0099 µM
COC(=O)[C@]12C3=C([C@H](C)O[C@H]1[C@@H]1C4=C(C(=O)OCC4=C[C@@]45C6=C(C(=O)OCC6)[C@@H](C[C@@H]14)OC5C)[C@H]2O)[C@H](O)OCC3 |  | 1.53 µM
C#C[C@](C)(CO)NC(=O)C(=O)c1c(C)c(C(=O)Nc2ccc(F)c(C(F)(F)F)c2)n(C)c1C | HepG2.2.15 | <0.001 µM
Cc1cc(C(=O)N2CCS(=O)(=O)[C@@H](c3cccs3)C2)ccc1Cl | HepG2.2.15 | 0.5–5 µM
CC1=CC2c3c(C)cc(-c4cc5ccc(O)cc5o4)cc3O[C@@]3(c4ccc(O)cc4O)Oc4cc(O)ccc4[C@H](C1)C23 | HepG2.2.15 | 3.99 µM
C#C[C@@H](CCO)NC(=O)C(=O)c1c(C)c(C(=O)Nc2ccc(F)c(C#N)c2)n(C)c1C | HepG2.2.15 | 0.001–0.0099 µM
COc1ccc(CNC(=O)c2c3n(c(=O)n2-c2ccccc2)CCN(C(=O)Nc2ccc(F)c(Cl)c2)C3)cc1 | HepG2.2.15 | 0.1–0.5 µM
O=C(Nc1ccc(F)c(Cl)c1)N1CCS(=O)(=O)[C@H](c2cccs2)C1 | HepG2.2.15 | 0.5–5 µM
Cc1cc(NC(=O)c2c(C)c(C(=O)C(=O)NC(C)(C)c3ccc4nc[nH]c4c3)c(C)n2C)ccc1F | HepG2.2.15 | 0.001–0.0099 µM
Cn1cc(S(=O)(=O)NC2CCN(C(=O)C(N)=O)CC2)c(F)c1C(=O)Nc1cc(F)c(F)c(F)c1 | HepAD38 cells | <0.1 µM
Cc1c(C(=O)C(=O)NC(C)(C)c2ccc3nc[nH]c3c2)c(C)n(C)c1C(=O)Nc1ccc(F)c(C#N)c1 | HepG2.2.15 | 0.001–0.0099 µM
CNC(=O)c1ccc(-n2c([C@@H]3CCCN3C(C)C)nc3c(c2=O)C[C@@H](C)N(C(=O)c2ccc(Br)c(C(F)(F)F)c2)C3)cc1 | HepG2.117 | >0.5 µM
CCOC(=O)C1=C(CN2CC(F)(F)[C@@H]3[C@H]2CON3C[C@H](F)C(C)(C)C(=O)O)NC(c2nccs2)=N[C@H]1c1cccc(F)c1C | HepG2.2.15 | 0.0225 µM
Cn1cc(S(=O)(=O)NC2CCN(C(=O)C(=O)NC3COC3)CC2(F)F)c(F)c1C(=O)Nc1ccc(F)c(F)c1 | HepAD38 cells | <0.1 µM
C[C@]1(c2ncc(Cc3ccccc3)s2)CN(C(=O)c2ccc(Br)c(Cl)c2)CCS1(=O)=O | HepG2.117 | 0.1–0.5 µM
CC1O[C@@H]2C[C@H]3[C@H]4C5=C(C(=O)OCC5=C[C@]13C1=C2C(=O)OCC1)[C@@H](O)O[C@@H]4c1cccc2c1CCOC2=O | HepG2.2.15 | 2.12 µM
CNC(=O)c1ccc(-n2c(N(Cc3ccccc3)C3CN(C)C3)nc3c(c2=O)C[C@@H](C)N(C(=O)c2ccc(Br)c(C(F)(F)F)c2)C3)cc1 | HepG2.117 | >0.5 µM
CC(C)Oc1ccc(-n2c(C(=O)NCc3ccc(C#N)cc3F)c3n(c2=O)CCN(C(=O)c2ccc(Br)c(Cl)c2)C3)cc1 | HepG2.117 | 0.1–0.5 µM
CCOC(=O)C1=C(CN2CC(F)(F)[C@H]3[C@@H]2CCN3CC[C@](C)(O)C(=O)O)NC(c2nccs2)=N[C@H]1c1cccc(F)c1C | HepG2.2.15 | 0.0405 µM
O=C(c1ccc(Cl)cc1F)N1CCS(=O)(=O)[C@H](c2cccs2)C1 | HepG2.2.15 | >5 µM
O=C(Nc1cc(F)c(F)c(F)c1)c1c(Cl)c(S(=O)(=O)NC2CCN(S(=O)(=O)C3CC3)CC2(F)F)c2n1CCC2 | HepAD38 cells | <0.1 µM
O=C(NCc1ccccc1-c1nccnn1)c1c2n(c(=O)n1-c1ccc(OC3CC3)cc1)CCN(C(=O)c1ccc(Br)c(Cl)c1)C2 | HepG2.2.15 | 0.1–0.5 µM
C[C@@H]1CS(=O)(=O)[C@H](c2cccs2)CN1C(=O)Nc1ccc(F)c(Cl)c1 | HepG2.117 | 0.5–5 µM
CCOC(=O)C1=C(CN2CC(F)(F)[C@H]3[C@@H]2CCN3CC[C@](C)(O)C(=O)O)NC(c2nccs2)=N[C@H]1c1ccc(F)c(F)c1Cl | HepG2.2.15 | 0.007 µM
Cc1c(C(=O)C(=O)NC(C)(C)c2cccnc2)c(C)n(C)c1C(=O)Nc1ccc(F)c(C(F)(F)F)c1 | HepG2.2.15 | <0.001 µM
O=C(c1ccc(Br)c(Cl)c1)N1CCn2c(c3n(c2=O)CCCN(CC2CC2)C3=O)C1 | HepG2.117 | >5 µM
C[C@H](c1ccccc1)c1cnc([C@@]2(F)CN(C(=O)c3ccc(Br)c(Cl)c3)CCS2(=O)=O)s1 | HepG2.117 | <0.1 µM
C[C@@H]1Cn2c(c3n(c2=O)C[C@H](F)CN(Cc2ccccc2)C3=O)CN1C(=O)c1ccc(Br)c(Cl)c1 | HepG2.117 | 0.1–0.5 µM
CNC(=O)c1ccc(-n2c(-n3cc(C4CC4)cn3)nc3c(c2=O)C[C@@H](C)N(C(=O)c2ccc(Br)c(C(F)(F)F)c2)C3)cc1 | HepG2.117 | >0.05 µM
CCOC(=O)C1=C(CN2CC(F)(F)[C@@H]3[C@H]2CON3CC[C@@](C)(OC)C(=O)O)NC(c2nccs2)=N[C@H]1c1cccc(F)c1C | HepG2.2.15 | 0.099 µM
CNS(=O)(=O)N1CC[C@@H](NS(=O)(=O)c2cn(C)c(C(=O)Nc3ccc(F)c(F)c3)c2F)C1 | HepAD38 cells | <0.1 µM
CCOC(=O)C1=C(CN2CC(F)(F)[C@@H]3[C@H]2CON3C[C@@H](OC)C(C)(C)C(=O)O)NC(c2nccs2)=N[C@H]1c1cccc(F)c1C | HepG2.2.15 | 0.0095 µM
N#Cc1ccc(-n2c(C(=O)NCc3ccccc3)c3n(c2=O)CCN(C(=O)c2ccc(Br)c(Cl)c2)C3)c(Cl)c1 | HepG2.117 | >5 µM
C[C@@H](c1ccccc1)c1cnc([C@]2(F)CN(C(=O)c3ccc(Br)c(Cl)c3)CCS2(=O)=O)s1 | HepG2.117 | 0.5–5 µM
COC(=O)C1=C(CN2CC(F)(F)[C@@H]3[C@H]2CON3C[C@H](OC)C(C)(C)C(=O)O)NC(c2nccs2)=N[C@H]1c1ccc(F)cc1Cl | HepG2.2.15 | 0.031 µM
COc1ccc(CN2C[C@H](O)Cn3c(c4n(c3=O)CCN(C(=O)c3ccc(Br)c(Cl)c3)C4)C2=O)c(F)c1 | HepG2.117 | 0.1–0.5 µM
C#CC1(NC(=O)C(=O)c2c(C)c(C(=O)Nc3ccc(F)c(C#N)c3)n(C)c2C)CC1 | HepG2.2.15 | <0.001 µM
CCOC(=O)C1=C(CN2CC(F)(F)[C@@H]3[C@H]2CON3C[C@H](OC)C(C)(C)C(=O)O)NC(c2nccs2)=N[C@H]1c1ccc(F)c(F)c1Cl | HepG2.2.15 | 0.0035 µM

Repeating the first 5 entries:

SMILES	cells	result
CCOC(=O)C1=C(CN2CC(F)(F)[C@H]3[C@@H]2CCN3CC[C@](C)(O)C(=O)O)NC(c2nccs2)=N[C@H]1c1ccc(F)c(F)c1C	HepG2.2.15	0.007 µM
CC1O[C@@H]2C[C@H]3[C@H]4C5=C(C(=O)OCC5=C[C@]13C1=C2C(=O)OCC1)[C@@H](O)[C@]12C(=O)OCCC1=C(C=O)[C@@H](C)O[C@H]42	HepG2.2.15	2.58 µM
C#C[C@](C)(NC(=O)C(=O)c1c(C)c(C(=O)Nc2ccc(F)c(C#N)c2)n(C)c1C)C(F)(F)F	HepG2.2.15	0.001–0.0099 µM
COC(=O)[C@]12C3=C([C@H](C)O[C@H]1[C@@H]1C4=C(C(=O)OCC4=C[C@@]45C6=C(C(=O)OCC6)[C@@H](C[C@@H]14)OC5C)[C@H]2O)[C@H](O)OCC3		1.53 µM
C#C[C@](C)(CO)NC(=O)C(=O)c1c(C)c(C(=O)Nc2ccc(F)c(C(F)(F)F)c2)n(C)c1C	HepG2.2.15	<0.001 µM

Lines come from different laboratories, so protocols vary. ECn is the concentration giving n% inhibition of infection, replication or growth. Two numbers with a dash give a range or band.